Measurements from patent publication US20050118678A1, “Modified polypeptides with therapeutic activity and methods of use” (priority 2003, published 2005).
Residues, ends and D or L forms follow the SMILES beside them. *: point of attachment. Stearoyl = CCCCCCCCCCCCCCCCCC(=O)*; Lauroyl = CCCCCCCCCCCC(=O)*

Assay: Tryptophan fluorescence spectroscopy in water and membrane mimics
Format: physicochemical
Details: for Tryptophan fluorescence emission maximum, DPC: DPC micelles 1:500, 25° C.; for Tryptophan fluorescence emission maximum, DPC / Tryptophan fluorescence emission maximum, SDS: n = 1; for Tryptophan fluorescence emission maximum, DPPC: DPPC liposomes; for Tryptophan fluorescence emission maximum, DPPC / Tryptophan fluorescence emission maximum, DPPE/DPPG: peptide-lipid 1:20, 25° C.; for Tryptophan fluorescence emission maximum, DPPC / Tryptophan fluorescence emission maximum, DPPE/DPPG / Tryptophan fluorescence emission maximum, Water: 5 μM, n = 3; for Tryptophan fluorescence emission maximum, DPPE/DPPG: DPPE/DPPG liposomes; for Tryptophan fluorescence emission maximum, SDS: SDS micelles 1:1000, 25° C.; for Tryptophan fluorescence emission maximum, Water: excitation 280 nm, 25° C.

Row | SMILES | Tryptophan fluorescence emission maximum, DPC [nm] | Tryptophan fluorescence emission maximum, DPPC [nm] | Tryptophan fluorescence emission maximum, DPPE/DPPG [nm] | Tryptophan fluorescence emission maximum, SDS [nm] | Tryptophan fluorescence emission maximum, Water [nm]
1 | CCCCCCCCCCCCCCCCCC(=O)N[C@@H](CCCCN)C(=O)N[C@@H](CC(C)C)C(=O)N[C@@H](Cc1ccccc1)C(=O)N[C@@H](CCCCN)C(=O)N[C@@H](CCCNC(=N)N)C(=O)N[C@@H](Cc1c[nH]cn1)C(=O)N[C@@H](CC(C)C)C(=O)N[C@@H](CCCCN)C(=O)N[C@@H](Cc1c[nH]c2ccccc12)C(=O)N[C@@H](CCCCN)C(=O)N[C@H](C(=O)N[C@H](C(N)=O)[C@@H](C)CC)[C@@H](C)CC [C18-SC4] (Stearoyl-KLFKRHLKWKII-NH2) | 344 | 349.0 ± 1.7 | 339.7 ± 3.2 | 342 | 353.3 ± 1.2
2 | CCCCCCCCCCCC(=O)N[C@@H](CCCCN)C(=O)N[C@@H](CC(C)C)C(=O)N[C@@H](Cc1ccccc1)C(=O)N[C@@H](CCCCN)C(=O)N[C@@H](CCCNC(=N)N)C(=O)N[C@@H](Cc1c[nH]cn1)C(=O)N[C@@H](CC(C)C)C(=O)N[C@@H](CCCCN)C(=O)N[C@@H](Cc1c[nH]c2ccccc12)C(=O)N[C@@H](CCCCN)C(=O)N[C@H](C(=O)N[C@H](C(N)=O)[C@@H](C)CC)[C@@H](C)CC [C12-SC4] (Lauroyl-KLFKRHLKWKII-NH2) | 344 | 348.7 ± 2.1 | 338.0 ± 0.0 | 341 | 353.0 ± 1.0
